A mixed list of measured activities; the numbers were collected in NIAID ChemDB.

Shared fields: whole-cell or culture tests; agent: HIV-1; read-out: fold resistance

Fold resistance has wild type as its base. Blank or dashed fields: not listed here. Rows are shuffled and stem from different studies.

SMILES	mutations	strain	read by	cell line	result
CC(C)[C@H](NC(=O)OCc1ccccn1)C(=O)N[C@@H](Cc1ccccc1)[C@@H](O)C[C@H](Cc1ccccc1)NC(=O)OCc1cccnc1	PR-M46I L63P V82T	NL4-3	p24	MT-4	3.75
CCC(=O)c1ccc(F)c([C@@H]2C[C@@H]2NC(=O)Nc2ccc(C#N)cn2)c1O	NNRTI-resistant (RT L100I)	LAI	β-galactosidase / luminescence	TZM-bl	7.4
Cc1occc1C(=S)Nc1ccc(Cl)c(C(=O)OC(C)C)c1	RT-Y181C	NL4-3	cytopathic effect / XTT	CEM + CEM-SS	40
O=C1Nc2ccc(F)c(F)c2[C@@](/C=C/C2CC2)(C(F)(F)F)N1	RT-V108I	-	-	-	<6.32
Nc1nc(NC2CC2)c2ncn([C@H]3C=C[C@@H](CO)C3)c2n1	RT-T69SSS L210W T215Y	XM-T69SSS	p24	MT-4	17
CC(C)=CCOc1cc(NC(=S)c2ccoc2C)ccc1Cl	RT-K103N	NL4-3	p24	CEM + CEM-SS	17
CCOCn1c(Sc2ccccc2)c(CC)c(=O)[nH]c1=S	RT-Y181C	IIIB	syncytia	CEM	136
CC=CCOc1cc(NC(=S)c2ccoc2C)ccc1OC	RT-K103N	NL4-3	cytopathic effect / XTT	CEM + CEM-SS	107
CC(C)=CCOc1cc(NC(=S)c2ccsc2C)ccc1Cl	RT-Y181C	UC82-R (RT-Y181C)	cytopathic effect / XTT	CEM + CEM-SS	40
CCc1cc(C#N)cc(C(=O)c2cc(Cl)ccc2OCC(=O)Nc2ccc(S(N)(=O)=O)cc2C)c1	RT-Y181C	Nevirapine-resistant (RT Y181C)	cytopathic effect / propidium iodide	MT-4	~1
Cc1ccc(C2CC2)c(-c2ccc3c(c2)CCCO3)c1[C@H](OC(C)(C)C)C(=O)O	PI-resistant ARP-11801 (L10F/G16A/L33F/K43T/L63P/A71V/V82A)	NL4-3	luminescence	MT-4	1
CC(C)=CCOc1cc(NC(=S)c2ccoc2C)ccc1Cl	RT-M184I	3TC-RS (RT-M184I)	cytopathic effect / XTT	CEM + CEM-SS	3
Cc1occc1C(=S)Nc1ccc(Cl)c(/C=N/OC(C)(C)C)c1	RT-D67N K70R Y181C T215Y K219Q	4XAZT/Y181C (RT D67N K70R Y181C T215Y K219Q)	cytopathic effect / XTT	CEM + CEM-SS	2.5
CCOCn1c(Sc2cc(C)cc(C)c2)c(CC)c(=O)[nH]c1=O	RT-Y181C	IIIB	syncytia	CEM	75
Cc1occc1C(=S)Nc1ccc(Cl)c(C(=O)OCC2CC2)c1	RT-L74V	NL4-3	cytopathic effect / XTT	CEM + CEM-SS	1
CCOCn1c(Cc2ccccc2)c(CC)c(=O)[nH]c1=O	RT-L100I	IIIB (TIBO 82150) (RT-L100I)	syncytia	CEM	5
Cc1cc(S(N)(=O)=O)ccc1NC(=O)COc1ccc(Cl)cc1C(=O)c1cc(F)cc(C#N)c1	RT-L100I	HXB2	β-galactosidase	HeLa + HELA CD4+	~1
C=CCO/N=C/c1cc(NC(=S)c2ccoc2C)ccc1Cl	RT-V108I	NL4-3	cytopathic effect / XTT	CEM + CEM-SS	14.3
Cc1cc(C)cc(Sc2c(C(C)C)c(=O)[nH]c(=S)n2COCCO)c1	RT-L100I	IIIB (TIBO 82150) (RT-L100I)	syncytia	CEM	1.5
CCCc1cc(=O)oc2c3c(c4c(c12)OC(C)(C)CC4)O[C@H](C)[C@@H](C)C3=O	RT-K101E	-	cytopathic effect / XTT	-	18
O=C(O[C@@H]1[C@H](OC(=O)c2ccccc2)[C@@H](CO)O[C@H]1n1cnc2c(N(C(=O)c3ccccc3)C(=O)c3ccccc3)ncnc21)c1ccccc1	T215Y	NL4-3	β-galactosidase	HeLaP4	1.07
Nc1nc(=O)n([C@H]2C=C[C@@H](CO)O2)cc1F	RT-M41L D67N K70R T215Y K219Q	XM-AZT-resistant	p24	MT-4	1.1
Cc1cc(NS(=O)(=O)CC2CCCCC2)c(C)c(C(OC(C)(C)C)C(=O)O)c1-c1ccc2c(c1)CCCO2	H171Q	NL4-3	p24 / luminescence	MT-4	2
N#Cc1cc(Cl)cc(Oc2c(Br)ccc(CC(=O)Nc3ccc(S(N)(=O)=O)cc3Cl)c2F)c1	V106A/F227C/M230L	-	-	MT-4	>308
CCOCn1c(Sc2cc(C)cc(C)c2)c(CC)c(=O)[nH]c1=S	RT-E138K	IIIB	syncytia	CEM	10
Cc1cc2cn[nH]c2cc1NC(=O)COc1ccc(Cl)cc1C(=O)c1cccc(C#N)c1	RT-K101E	HXB2	β-galactosidase	HeLa + HELA CD4+	~1
O=C1Nc2ccc(F)c(F)c2[C@@](C#CC2CC2)(C(F)(F)F)N1	RT-P225H	-	-	-	<13.3
Cc1cc(C#N)cc(C(=O)c2cc(Cl)ccc2OCC(=O)Nc2ccc(S(N)(=O)=O)cc2C)c1	RT-Y181C	HXB2	β-galactosidase	HeLa + HELA CD4+	~1
C[C@@H]1CCO[C@H]2Cn3cc(C(=O)NCc4ccc(F)cc4F)c(=O)c(O)c3C(=O)N12	G140S/Q148H	NL4-3	RT activity	CBMC	7.4
C[C@@H]1CCO[C@H]2Cn3cc(C(=O)NCc4ccc(F)cc4F)c(=O)c(O)c3C(=O)N12	I60M/V72I/L74F/V75I	-	luciferase / luminescence	TZM-bl	0.3

Again, the opening 3 rows:

SMILES	mutations	strain	read by	cell line	result
CC(C)[C@H](NC(=O)OCc1ccccn1)C(=O)N[C@@H](Cc1ccccc1)[C@@H](O)C[C@H](Cc1ccccc1)NC(=O)OCc1cccnc1	PR-M46I L63P V82T	NL4-3	p24	MT-4	3.75
CCC(=O)c1ccc(F)c([C@@H]2C[C@@H]2NC(=O)Nc2ccc(C#N)cn2)c1O	NNRTI-resistant (RT L100I)	LAI	β-galactosidase / luminescence	TZM-bl	7.4
Cc1occc1C(=S)Nc1ccc(Cl)c(C(=O)OC(C)C)c1	RT-Y181C	NL4-3	cytopathic effect / XTT	CEM + CEM-SS	40